* marks the point of attachment. OtBu = CC(C)(C)O*
Legend:
[1] = general procedure: Fmoc solid-phase peptide synthesis; MBHA; settings: whole synthesis
[2] = general procedure: Fmoc solid-phase peptide synthesis; 2-chlorotrityl; settings: whole synthesis

Which isolated yield [1] does the source give for “Ac-Glu-Glu-Val-Val-Pro-nVal(CO)-Gly-Met-Ser-Tyr-Ser-NH2” here?
Its isolated yield is 26%.

For Ac-E(OtBu)E(OtBu)VVP-OH, which isolated yield [2] is on record?
The isolated yield was 65%.

From patent US20020068702 (published 2002)
